PubChem BioAssay AID504761 | Drosophila RNAi Screening Center, 2011
Test: 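Fly genes whose silencing reduces dengue virus type 2 infection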 (primary screen). System: D.Mel-2 cells from Drosophila. Knock-down reagent: long dsRNA against Drosophila genes. Conditions: infection with dengue virus type 2; dose and infection time not stated. Measurement: 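Per well on two replicate plates, imaging gave the percent of cells positive for viral envelope protein, ranked by infection, and a nuclear count of cells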. Reading the numbers: infection score: higher = more virus-infected cells; cell count: higher = more cells in the well. Rule for the call: 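Low infection ranks in the two replicates (chance level up to 0.065) followed by a retest with a 1.5-fold or larger significant decrease, p below 0.05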. Meaning of the calls: active = confirmed: knock-down lowers infection; inactive = not picked or not confirmed.
The screen tested about 22,000 reagents; this is a random part of those that have a named target and a result. In the full data, 116 (0.52%) are marked active. 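Calls depend on retest data that are not deposited; infection was ranked per plate without normalising between plates; the unit of the infection score is not given.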 Raw values vary from plate to plate and are shown uncorrected. The numbers tell different reagents against one gene apart. Further read-outs or replicates are left out here. Reagent sequences are not shown. Not stated in the record: the amount of reagent, the time to read-out.

The first 3 records, ahead of the listing:
gene	reagent	infection score, replicate 1	infection score, replicate 2	cell count, replicate 1	call
BaraB	1	21.8		6590	inactive
CG31697	1	3.08	9.44	6101	inactive
Ufsp1	1	1.57	0.45	6428	inactive

Results, from the start:
gene	reagent	infection score, replicate 1	infection score, replicate 2	cell count, replicate 1	call
BaraB	1	21.8		6590	inactive
CG31697	1	3.08	9.44	6101	inactive
Ufsp1	1	1.57	0.45	6428	inactive
Ufsp1	2	17.3	15.8	5844	inactive
toy	1	3.5	8.32	6401	inactive
toy	2	4.2	7.03	6255	inactive
CG9143	1	12.8	14.1	4809	inactive
Mipp1	1	6.75	6.75	6618	inactive
CG4666	1	10.4	12.8	6285	inactive
gzl	1	0.77	4.28	518	inactive
gzl	2	23.2	15	5157	inactive
frtz	1	7.1	17.5	6931	inactive
CG5273	1	6.11	5.56	5468	inactive
Imp	1	1.22	6.93	5816	inactive
Imp	2	3.37	4.69	6528	inactive
CG32192	1	1.96	1.51	560	inactive
CG32192	2	4.96	13.8	6915	inactive
CG6923	1	11.2	12.6	6515	inactive
CG6923	2		17.8	356	inactive
CG34175	1	4.85	2.39	6593	inactive
QC	1	3.29	2.2	6710	inactive
CG31664	1	5.24	5.68	6911	inactive
wupA	1			310	inactive
wupA	2	1.64	2.44	6627	inactive
wupA	3		14	323	inactive
